In ChEMBL document CHEMBL1156053, “Design, synthesis, protein-ligand X-ray structure, and biological evaluation of a series of novel macrocyclic human immunodeficiency virus-1 protease inhibitors to combat drug resistance” (J Med Chem, 2009):

Columns and labels:
Protease = Protease (Human immunodeficiency virus 1, UniProt Q9YQ12); assay: Inhibition of HIV1 protease
[1] = system: Human immunodeficiency virus 1; assay: Antiviral activity against HIV1 LAI infected in human MT2 cells by MTT assay; assay type: functional, organism-based; settings: Human immunodeficiency virus 1, M:B_Lai
Outline: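 MT-2 human T-lymphoid cells (2×10³) infected with HIV-1LAI at 100 TCID50, then cultured in the presence of each protease inhibitor. IC50 was determined from an MTT read-out of cell viability.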

Q: `COc1ccc2c(c1)OCCCCN(C[C@@H](O)[C@H](Cc1ccccc1)NC(=O)O[C@H]1CO[C@H]3OCC[C@H]31)S2(=O)=O` was tested. Which Ki (Protease) did it give?
A: The Ki was 1.27 nM.

Q: And the IC50 [1]?
A: Its IC50 is 77 nM.
